Patent US9683231B2, “RNAi-based method of drug screening and characterization” (Massachusetts Institute of Technology, priority 2010, dated 2017)

Test system: Eμ-Mycp19^Arf−/− mouse lymphoma cells
Test: Drug treatment and FACS viability (propidium iodide) to determine LD80-90
Format: cell-based

For `O=P1(N(CCCl)CCCl)NC(SCCS(=O)(=O)O)CCO1` (stereo not shown) [Maphosphamide], the “Concentration used (LD80-90)” value was 6.9 µM.
